Pooled drug test results. Numbers come from NIAID ChemDB, via PubChem.

Shared fields: growth or infection tests; species: Hepatitis C virus; read-out: EC50

Blank or dashed fields: not listed here. Two numbers with a dash give a range or band. Lines come from different laboratories, so protocols vary. ECn is the concentration giving n% inhibition of infection, replication or growth.

Cc1cc(OCc2ccccc2)ccc1C1Nc2cccc(O)c2NC2=C1C(=O)CC(C)(C)C2 ; strain or isolate: 1b ; read by: luciferase / reporter gene / replicon ; value: 1.4 µM
O=C(NC1CC1)c1ccc(F)c(Cn2c(C(=O)NS(=O)(=O)C3CC3)c(-c3ccc[nH]c3=O)c3c4occc4c(F)cc32)c1 ; read by: replicon ; value: >1.5 µM
CC1(C)CC(=O)C2=C(C1)Nc1c(O)cccc1N(C(=O)CCC(=O)N1CCc3ccccc3C1)C2c1ccc(OCc2ccccc2)cc1Cl ; strain or isolate: 1b ; read by: luciferase / reporter gene / replicon ; value: 1.7 µM
O=C(NS(=O)(=O)C1CC1)c1c(-c2ccc[nH]c2=O)c2c3occc3c(F)cc2n1Cc1cc(F)ccc1F ; read by: replicon ; value: <0.5 µM
CC1(C)CC(=O)C2=C(C1)Nc1c(O)cccc1N(C(=O)c1ncc3ccccc3n1)C2c1ccc(OCc2ccccc2)cc1F ; strain or isolate: 1b ; read by: luciferase / reporter gene / replicon ; value: 1 µM
NC(=O)COc1ccc2c(c1)S(=O)(=O)N=C(c1c(O)c3cc(F)ccc3n(CCC3CC3)c1=O)N2 ; strain or isolate: 1b 45969 ; read by: replicon ; value: 0.18 µM
CC(=O)N1c2cccc(O)c2NC2=C(C(=O)CC(C)(C)C2)C1c1ccc(OCc2ccccc2)c(Cl)c1 ; strain or isolate: 1b ; read by: luciferase / reporter gene / replicon ; value: 2.18 µM
CS(=O)(=O)CCNc1nc(NCc2ccc(F)cc2)nc2ccc(-c3ccc(F)cc3)nc12 ; read by: replicon ; value: <0.1 µM
O=C(O)c1c(-c2ccc[nH]c2=O)c2c3occc3c(F)cc2n1Cc1cc2ccccc2[nH]c1=O ; read by: replicon ; value: <0.5 µM
CC1(C)CC(=O)C2=C(C1)Nc1c(O)cccc1N(C(=O)c1ccc(=O)[nH]n1)C2c1ccc(OCc2ccccc2)cc1F ; strain or isolate: 1b ; read by: luciferase / reporter gene / replicon ; value: 2.98 µM
CCOc1nc(NCc2ccc(S(N)(=O)=O)cc2)nc2ccc(-c3ccc(NC(=O)[C@@H](N)[C@H](C)O)cc3)nc12 ; read by: replicon ; value: <0.1 µM
CC1(C)CC(=O)C2=C(C1)Nc1c(O)cccc1N(C(=O)c1nccnc1N)C2c1ccc(OCc2ccccc2)cc1F ; strain or isolate: 1b ; read by: luciferase / reporter gene / replicon ; value: 1.03 µM
CCOc1nc(NCc2ccc(S(N)(=O)=O)cc2)nc2ccc(-c3cnc(N)s3)nc12 ; read by: replicon ; value: <0.1 µM
COc1cc(Cn2c(C(=O)OCOC(=O)C(C)(C)C)c(-c3cccn(COC(=O)C(C)(C)C)c3=O)c3c4occc4c(F)cc32)c(F)cn1 ; read by: replicon ; value: <0.5 µM
CC1CCC(C(=O)N(c2cc(-c3ccc(NC(=O)c4cscn4)cc3)sc2C(=O)[O-])C(C)C)CC1.C[N+](C)(C)CCO ; strain or isolate: 1b ; read by: replicon ; value: <0.5 µM
CC(C)Nc1nc(Nc2ccc(F)cc2)nc2ccc(-c3ccc(F)cc3)nc12 ; read by: replicon ; value: 0.25–2 µM
O=C(O)c1c(-c2ccc[nH]c2=O)c2c3occ(Cl)c3ccc2n1Cc1ccccc1F ; read by: replicon ; value: <0.5 µM
CC1CCC(C(=O)N(c2cc(-c3ccc(NC(=O)c4cscn4)cc3)sc2C(=O)O)C2CCC2)CC1 ; strain or isolate: 1b ; read by: replicon ; value: <0.5 µM
CC(=O)N1c2cccc(O)c2NC2=C(C(=O)CC(C)(C)C2)C1c1ccc(Cl)cc1 ; strain or isolate: 1b ; read by: luciferase / reporter gene / replicon ; value: 10.54 µM
CCN(C(=O)C1CCC(C)CC1)c1cc(-c2ccc(NC(=O)c3cn(C)cn3)cc2)sc1C(=O)O ; strain or isolate: 1a ; read by: replicon ; value: <0.5 µM
CCOc1nc(NCc2ccc(F)cc2)nc2ccc(-c3ccc(NC(=O)N4CCOCC4)cc3)nc12 ; read by: replicon ; value: <0.1 µM
CC1CCC(C(=O)N(CC2CC2)c2cc(-c3ccc(NC(=O)c4ccn(C)n4)cc3)sc2C(=O)O)CC1 ; strain or isolate: 1b ; read by: replicon ; value: <0.5 µM
COC(=O)c1ccc(F)c(Cn2c(C(=O)NS(=O)(=O)C3CC3)c(-c3ccc[nH]c3=O)c3c4occc4ccc32)c1 ; read by: replicon ; value: <0.5 µM
CC1CCC(C(=O)N(c2cc(-c3ccc(NC(=O)c4ccn[nH]4)cc3)sc2C(=O)O)C(C)C)CC1 ; strain or isolate: 1b ; read by: replicon ; value: <0.5 µM
CC(=O)N1c2cccc(O)c2NC2=C(C(=O)CC(C)(C)C2)[C@@H]1c1ccc(OCc2ccccc2)cc1Cl ; strain or isolate: 1b ; read by: luciferase / reporter gene / replicon ; value: 2.39 µM

A second listing of 2 rows from above:

structure,strain or isolate,read by,value
COC(=O)c1ccc(F)c(Cn2c(C(=O)NS(=O)(=O)C3CC3)c(-c3ccc[nH]c3=O)c3c4occc4ccc32)c1,-,replicon,<0.5 µM
CC1(C)CC(=O)C2=C(C1)Nc1c(O)cccc1N(C(=O)c1nccnc1N)C2c1ccc(OCc2ccccc2)cc1F,1b,luciferase / reporter gene / replicon,1.03 µM